From patent EP1951748B1, “HEPATITIS C VIRUS VARIANTS” (Vertex Pharmaceuticals, Inc., priority 2005, dated 2007) come the findings set out here.

Structures are written as SMILES.

The experiment deals with HCV NS3 protease A156T/V/I. The experiment is described as follows: Enzymatic IC50 assay, mutations at the same position pooled. Conditions: mean of all A156T/V/I mutants tested. It counts as biochemical.

For orientation: IC50 means the concentration that gives 50% inhibition. High values mean weaker potency, low ones greater potency. Take `CCC[C@H](NC(=O)[C@@H]1[C@H]2CCC[C@H]2CN1C(=O)[C@@H](NC(=O)[C@@H](NC(=O)c1cnccn1)C1CCCCC1)C(C)(C)C)C(=O)C(=O)NC1CC1` [VX-950]: the IC50 amounted to 29.8 µM.
